Assay [1] deals with Mycobacterium tuberculosis H37Rv. Kind of assay: Microplate Alamar Blue MIC assay, H37Rv. Type of assay: cell-based. Background: Resazurin is reduced to fluorescent resorufin, in cell work by metabolically active cells.
The subject of assay [2] is Mycobacterium abscessus IDR-1400012185. The experiment in a line: Broth microdilution MIC assay, M. abscessus. Type of assay: cell-based. More on the design: unit not given here. Conditions: unit not given. On the technique in general: In broth dilution the organism is exposed to a series of concentrations in liquid medium.

As for `COC1C=COC2(C)Oc3c(C)c(O)c4c(c3C2=O)C2=NC3(CCN(c5ccc(F)cc5NC(=O)C(Cc5ccccc5)NC(=O)c5ccccc5F)CC3)NC2=C(NC(=O)C(C)=CC=CC(C)C(O)C(C)C(O)C(C)C(O)C1C)C4=O` (centres unmarked), in assay [1], the “antibacterial activity M. tuberculosis H37Rv MIC” value was determined as 0.024 µg/mL. In assay [2], the “antibacterial activity M. abscessus IDR-1400012185” value came to 0.39.

The record behind these values is patent US20250082761A1, “DUAL-TARGETED RNA POLYMERASE INHIBITORS: CONJUGATES OF BENZOXAZINO- AND SPIRO-RIFAMYCINS WITH N ALPHA-AROYL-N-ARYL-[…]” (priority 2021, published 2025).
